How the values were obtained:
[1] = Antiviral activity against Influenza A virus (A/WSN/1933(H1N1)) expressing nucleoprotein Y289H mutant assessed as virus-mediated cytopathic effect in MDCK cells
[2] = Antiviral activity against Influenza A virus (A/WSN/1933(H1N1)) expressing nucleoprotein Y52H mutant assessed as virus-mediated cytopathic effect in MDCK cells
[3] = Antiviral activity against Influenza A virus (A/WSN/1933(H1N1)) expressing nucleoprotein S377G mutant assessed as virus-mediated cytopathic effect in MDCK cells

**Q.** For `Cn1c(=O)c2c(-c3ccccc3)n3c(c2n(C)c1=O)C(c1ccccc1F)OCC3(C)C` (stereo not drawn), which EC50 [1] is on record?
**A.** 1400 nM

**Q.** What about the EC50 [2] of the same compound?
**A.** 1000 nM

**Q.** And the EC50 [3]?
**A.** 8000 nM

— ChEMBL document CHEMBL3616452 (Eur J Med Chem, 2015)
